Laboratory results published in patent US8192854B2, “Microbial fuel cell treatment of ethanol fermentation process water” (priority 2009, dated 2012).

Experiments:
[1] = system: inhibitor-consuming microbial consortium in a microbial fuel cell (MFC-A); test: Power density analysis of MFC with individual inhibitor as substrate, ferricyanide cathode; conditions: for maximum power density: substrate at 0.2 g/L, projected anode area; for volumetric power density: converted from area power density with anode specific surface area 79 m^2/m^3 and NAV 0.83
[2] = system: inhibitor-consuming microbial consortium in a microbial fuel cell (MFC-A); test: Removal of inhibitor mixture during enrichment of consortium in MFC-A; conditions: mixture of 0.2 g/L 2-furfural, 0.1 g/L HB, 0.1 g/L HAP, 0.5 g/L VA added at time zero
[3] = system: inhibitor-consuming microbial consortium in a microbial fuel cell (MFC-A); test: Coulombic efficiency and HPLC analysis of inhibitor conversion in MFC; conditions: individual substrate in MFC

Question: `CC(=O)c1ccc(O)cc1` [HAP, 4-hydroxyacetophenone] was tested. Which maximum power density [1] did it give?
Answer: Its maximum power density is 9 mW/m^2.

Question: Which results are given for `O=Cc1ccc(O)cc1` [HB, 4-hydroxybenzaldehyde]?
Answer: time of consumption of substrate [2]: 5 days; volumetric power density [1]: 59 W/m^3; maximum power density [1]: 630 mW/m^2; coulombic efficiency (CE) [3]: 64±4%

Question: `O=Cc1ccc(CO)o1` [HMF, 5-hydroxymethylfurfural] was tested. Which volumetric power density [1] did it give?
Answer: The volumetric power density was 238 W/m^3.

Question: And the maximum power density [1]?
Answer: Its maximum power density is 2510 mW/m^2.

Question: And the “coulombic efficiency (CE)” value [3]?
Answer: Its value is 60±4%.

Question: What about the “degree of mineralization (coulombic efficiency and HPLC data)” value [3] of the same compound?
Answer: The value was “near complete mineralization”.

Question: For `COc1cc(C(=O)O)ccc1O` [VA, vanillic acid], which maximum power density [1] is on record?
Answer: The maximum power density was 150 mW/m^2.
